Results taken from publication PMC10892871 (Viruses, 2024).

How the values were obtained:
[1] = test system: wild type B.1 SARS-CoV-2; format: cell-based
[2] = test system: Omicron BQ.1.1 SARS-CoV-2 variant; format: cell-based

Substance	IC50 [1] [µg/mL]	IC50 vs. B.1 Mean ± SD [1] [ng/mL]	IC50 vs. BQ.1.1 Mean ± SD [2]
bebtelovimab	0.03 ± 0.01	33 ± 7	active only against the wild type B.1
cilgavimab			active only against the wild type B.1
tixagevimab			active only against the wild type B.1
